Experimental data: PubChem BioAssay AID624099 (ICCB-Longwood, 2012)

Test: 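Human genes that papillomavirus E2 requires to repress the HPV18 LCR promoter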 (primary screen)
Cells: human C33A cervical carcinoma cells (HPV-negative) stably expressing BPV1 E2 and an HPV18 LCR luciferase reporter
Reagent: siRNA pool against human genes, 40 nM
Duration: 72 h
Detection: 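Per-well luciferase luminescence, z-scored on each plate against the plate mean and SD with control wells left out, then averaged across three replicate plates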
Scale: mean z-score and z-score: higher = stronger reporter signal, weaker E2 silencing
Rule for the call: 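Hit if mean z-score reaches 2 and two or more of three replicate z-scores also reach 2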
Shown is an unselected part of about 21,000 deposited reagents. 497 of all reagents (2.4%) count as active. 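Higher z means weaker E2 silencing; only reporter increases were scored, and knock-downs that hurt cell survival may mask genuine repressor factors.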 A number with no mark means an inactive call.

target gene	mean z-score	z-score, replicate A	z-score, replicate B	z-score, replicate C
LINC02874	0.18	-0.07	0.45	0.18
ABCC2	1.31	1.24	1.24	1.44
TRAPPC2	0.82	0.73	0.77	0.96
MFAP3	-0.98	-1.12	-0.95	-0.87
SHMT2	-0.67	-0.68	-0.34	-0.99
TPD52L3	-0.04	-0.34	0.32	-0.11
ASF1B	0.76	0.64	0.88	
LOC401621 (retired record)	0.67	0.35	0.6	1.05
PAXBP1	-0.4	-0.23	-0.43	-0.52
VPS13A	0.46	0.48	0.39	0.51
REEP2	-0.59	-0.27	-0.91	-0.58
ZBED1	-0.24	-0.38	-0.13	-0.23
SLC10A7	2.05 (active)	1.67	2.46	2.03
NOVA1	1.67	1.83	1.5	1.67
RFWD3	0.3	0.12	-0.04	0.83
ZNF709	1.55	1.6	1.02	2.03
ALDH7A1	0.78	1.31	0.43	0.6
LINC01138	1.94	2.29	1.93	1.59
RSBN1L	0.63	0.73	0.64	0.52
LOC126772 (retired record)	2.37 (active)	2.65	1.95	2.51
ZNF595	0.16	0.08	0.26	0.13
ZFP82	1.15	1.14	1.08	1.25
FPGT	1.32	1.17	1.54	1.25
RRS1	0.96	1.21	0.51	1.16
MYOD1	-0.81	-0.67	-0.7	-1.04
HLA-DMB	1.07	1.01	1.27	0.93

Continued (7 carried over from the part before).
target gene	mean z-score	z-score, replicate A	z-score, replicate B	z-score, replicate C
LOC126772 (retired record)	2.37 (active)	2.65	1.95	2.51
ZNF595	0.16	0.08	0.26	0.13
ZFP82	1.15	1.14	1.08	1.25
FPGT	1.32	1.17	1.54	1.25
RRS1	0.96	1.21	0.51	1.16
MYOD1	-0.81	-0.67	-0.7	-1.04
HLA-DMB	1.07	1.01	1.27	0.93
BST1	0.38	0.51	0.21	0.43
CEP170P1	0.4	0.74	0.04	0.43
SECISBP2	-0.5	-0.37	-0.54	-0.59
ADCY8	-0.1	-0.47	-0.01	0.19
RPL22P11	-1.83	-1.51	-1.69	-2.28
TMEM43	1.97	1.79	1.9	2.21
MEOX1	0.49	0.93	0.48	0.07
DUSP15	1.23	1.37	1.05	1.26
CD99	-0.64	-0.67	-0.4	-0.86
LILRA2	-0.31	-0.22	-0.37	-0.33
PRELP	-0.87	-0.54	-0.97	-1.1
TEX2	2.15 (active)	2.32	2.01	2.12
CD99L2	-1.22	-1.31	-1.37	-0.99
GNG10	1.22	1.04	1.41	1.22
KLK4	-0.31	-0.45	-0.28	-0.21
ZNF446	-0.26	-0.37	-0.12	-0.28
HTR1A	3.33 (active)	3.02	3.8	3.17
FA2H	-0.42	-0.21	-0.52	-0.52
PTPRE	-1.64	-1.69	-1.65	-1.59
UQCRC1	-0.56	-0.44	-0.47	-0.77
TREH	-1.09	-1	-1.09	-1.18
ARL5A	0.58	0.43	0.79	0.52
RIC1	0.32	0.05	0.23	0.69
ANKRD60	-0.29	-0.32	-0.36	-0.18
LSR	-2.01	-2.28	-1.86	-1.89
PKP2	-0.65	-0.71	-0.8	-0.45
APOA2	0.87	0.57	1.06	0.97
ICAM4	-0.44	-0.36	-0.43	-0.54
SH3TC2	0.35	0.34	0.16	0.57
MRO	-0.65	-0.65	-0.78	-0.53
IDH3G	2	1.97	1.78	2.24
